Measured values from several laboratories, pooled; numbers as filed in NIAID ChemDB.

Shared fields: whole-cell or culture tests; agent: Herpes simplex virus 1; cell line: VERO; endpoint: EC50

Neighbouring rows are from separate reports. An empty or dashed field is not shown. ECn: concentration that inhibits the pathogen or its effect by n%.

compound,strain,read by,value
CCCCCC(=O)O[C@H]1C[C@H](n2cc(/C=C/Br)c(=O)[nH]c2=O)O[C@@H]1COP1(=O)OCc2cccc(C)c2O1,B2006 (TK-),plaque count,>128 µg/mL
O=c1[nH]c(=O)n([C@@H]2O[C@@H](CO)C[C@H]2F)cc1F,-,-,>100 µM
Nc1nc2c(ncn2COCCO)c(=O)[nH]1,KOS,plaque count,0.29 µM
C[C@@]1(CO)[C@H](O)CC[C@@]2(C)[C@H]1CC[C@H]1C[C@@H]3CC12CC1O[C@]13C,-,plaque count,>500 µM
O=c1[nH]c(=O)n(COCCO)cc1C#Cc1ccccc1,F,plaque count,>100 µM
Cc1cccc2c1OP(=O)(OCC(CO)CCn1cc(C)c(=O)[nH]c1=O)OC2,KUPKA,cytopathic effect,350 µM
O=c1[nH]c(=O)n([C@H]2C[C@H](O)[C@@H](COP3(=O)OCc4cc(Cl)ccc4O3)O2)cc1/C=C/Br,B2006 (TK-),plaque count,>128 µg/mL
CCc1cn([C@H]2C[C@H](O)[C@@H](CO)S2)c(=O)[nH]c1=O,L2/R acyclovir-resistant,cytopathic effect,4.7 µM
O=c1ccn([C@@H]2O[C@H](CO)C[C@@H]2F)c(=O)[nH]1,-,-,>100 µM
Nc1nc2c(ncn2COCCO)c(=O)[nH]1,KUPKA,cytopathic effect,0.62 µM
O=C(CP(=O)(O)O)OC[C@H]1O[C@@H](n2cc(CCCl)c(=O)[nH]c2=O)C[C@@H]1O,BRAND,cytopathic effect,>24.2 µM
C[C@]12CCC3OC[C@@]3(C)[C@@H]1CC[C@H]1C[C@@H]3CC12CCC3=O,-,plaque count,>500 µM
Cc1cc(C)c2c(c1)COP(=O)(OC[C@H]1O[C@@H](n3cc(/C=C/Br)c(=O)[nH]c3=O)C[C@@H]1O)O2,KUPKA (TK+),plaque count,1.1 µg/mL
CCOC(=O)P(=O)(OCCOCn1cnc2c(=O)[nH]c(N)nc21)OC(C)C,L2,cytopathic effect,0.37 µM
CC(=O)c1cn(CC=C(CO)CO)c(=O)[nH]c1=O,F,plaque count,>100 µM
CC1OP(=O)(OC[C@H]2O[C@@H](n3cc(/C=C/Br)c(=O)[nH]c3=O)C[C@@H]2O)Oc2cccc(Cl)c21,KUPKA (TK+),plaque count,0.22 µg/mL
O=c1ccn([C@@H]2[Se][C@H](CO)[C@@H](O)[C@H]2O)c(=O)[nH]1,-,MTT,>100 µM
CC1(C)OC[C@]2(C)[C@@H](CC[C@@]3(C)[C@H]2CC[C@H]2C[C@@H]4CC23CCC4=O)O1,-,plaque count,>500 µM
COc1cc(O)c(CC=C(C)C)c2c1C(=O)CC(c1ccc(O)cc1)O2,-,cytopathic effect,>62 µg/mL
C[C@@]12COCO[C@@H]1CC[C@@]1(C)[C@H]2CC[C@H]2C[C@@H]3CC21CCC31COCO1,-,plaque count,>500 µM
Nc1nc2c(ncn2[C@H]2O[C@@H](CO)C[C@H]2F)c(=O)[nH]1,-,-,>100 µM
Cc1cccc2c1OP(=O)(OC[C@H]1O[C@@H](n3cc(/C=C/Br)c(=O)[nH]c3=O)C[C@@H]1O)OC2,B2006 (TK-),plaque count,>128 µg/mL
CC(=O)OC[C@@]1(O)CCC23C[C@H]1C[C@@H]2CC[C@@H]1[C@]3(C)CCC(=O)[C@@]1(C)COS(=O)(=O)c1ccc(C)cc1,-,plaque count,>500 µM
O=c1ccn([C@@H]2[Se][C@H](CCO)[C@@H](O)[C@H]2O)c(=O)[nH]1,-,MTT,2.3 µM
O=C(OCc1ccccc1)P(=O)(O)OC[C@H]1O[C@@H](n2cc(CCCl)c(=O)[nH]c2=O)C[C@@H]1O,BRAND,cytopathic effect,>20.5 µM
COc1ccc2c(c1)COP(=O)(OC[C@H]1O[C@@H](n3cc(/C=C/Br)c(=O)[nH]c3=O)C[C@@H]1O)O2,KUPKA (TK+),plaque count,0.36 µg/mL
CC1(C)OC[C@]2(C)[C@@H](CC[C@@]3(C)[C@H]2CC[C@H]2C[C@@H]4[C@H](O)C23CCC42OC(C)(C)O2)O1,-,plaque count,>500 µM
O=c1[nH]c(=O)n([C@H]2C[C@H](O)[C@@H](CO)O2)cc1CCCl,TK-,cytopathic effect,>34.2 µM
C/C=C1/CCC23C[C@H]1C[C@@H]2CC[C@H]1[C@]2(C)COC(C)(C)O[C@@H]2CC[C@@]13C,-,plaque count,>500 µM
CNc1ncnc2c1ncn2[C@@H]1O[C@@H](CO)C[C@H]1F,-,-,>100 µM
CCOC(=O)CP(=O)(OC)OC[C@H]1O[C@@H](n2cc(CCCl)c(=O)[nH]c2=O)C[C@@H]1O,BRAND,cytopathic effect,>6.6 µM
Oc1ccccc1O,-,cytopathic effect,>512 µg/mL
CC(=O)CCC(=O)O[C@H]1C[C@H](n2cc(/C=C/Br)c(=O)[nH]c2=O)O[C@@H]1COP1(=O)OCc2ccccc2O1,KUPKA (TK+),plaque count,0.62 µg/mL
CCCCCc1ccc(-c2cc3cn(COCCO)c(=O)nc3o2)cc1,F,plaque count,>100 µM
Nc1nc2c(ncn2CCC(CO)COP2(=O)OCc3ccccc3O2)c(=O)[nH]1,KUPKA,cytopathic effect,91.6 µM
Cc1cccc2c1OP(=O)(OC[C@H]1O[C@@H](n3cc(/C=C/Br)c(=O)[nH]c3=O)C[C@@H]1OC(=O)[C@@H](N)CC(C)C)OC2,B2006 (TK-),plaque count,>128 µg/mL
CCCCCCCCC#Cc1cn(COCCO)c(=O)[nH]c1=O,F,plaque count,>100 µM
CC1(C)OC[C@]2(C)[C@@H](CC[C@@]3(C)[C@H]2CC[C@H]2C[C@@H]4CC23CC[C@@]4(C)O)O1,-,plaque count,>500 µM
Cc1cn(CCC(CO)COP2(=O)OCc3ccccc3O2)c(=O)[nH]c1=O,KUPKA,cytopathic effect,>364 µM
CCOC(=O)P(=O)(OC)OC[C@H]1O[C@@H](n2cc(CCCl)c(=O)[nH]c2=O)C[C@@H]1O,BRAND,cytopathic effect,>0.7 µM
O=c1[nH]c(=O)n([C@H]2O[C@@H](CO)C[C@H]2F)cc1Br,-,-,>100 µM
Cc1ccc(O)c(O)c1,-,cytopathic effect,>512 µg/mL
Nc1nc(=O)n([C@H]2O[C@@H](CO)C[C@H]2F)cc1Br,-,-,>100 µM
CCCCCc1ccc(-c2cc3cn(C/C=C/C(O)CO)c(=O)nc3o2)cc1,F,plaque count,>100 µM

For reference, 5 entries again:

{"compound": "Cc1cccc2c1OP(=O)(OC[C@H]1O[C@@H](n3cc(/C=C/Br)c(=O)[nH]c3=O)C[C@@H]1O)OC2", "strain": "B2006 (TK-)", "read by": "plaque count", "value": ">128 µg/mL"}
{"compound": "O=C(OCc1ccccc1)P(=O)(O)OC[C@H]1O[C@@H](n2cc(CCCl)c(=O)[nH]c2=O)C[C@@H]1O", "strain": "BRAND", "read by": "cytopathic effect", "value": ">20.5 µM"}
{"compound": "CCc1cn([C@H]2C[C@H](O)[C@@H](CO)S2)c(=O)[nH]c1=O", "strain": "L2/R acyclovir-resistant", "read by": "cytopathic effect", "value": "4.7 µM"}
{"compound": "Cc1ccc(O)c(O)c1", "read by": "cytopathic effect", "value": ">512 µg/mL"}
{"compound": "Nc1nc(=O)n([C@H]2O[C@@H](CO)C[C@H]2F)cc1Br", "value": ">100 µM"}